Compound potency records, mixed from different reports. Data source: NIAID ChemDB in PubChem.

All rows: tests in culture

MIC50, MIC90 and the like: level of inhibition, or share of isolates inhibited.

structure	species	strain or isolate	read-out	result
N#Cc1cnn(-c2ccc(C3=NO[C@@H](CNC(=O)O)C3)cc2F)c1	Staphylococcus epidermidis	UC12084	MIC	1 µg/mL
CCC(=O)NC[C@H]1CN(c2ccc(C3CCS(=O)(=O)CC3)c(F)c2)C(=O)O1	Staphylococcus epidermidis	UC12084	MIC	0.5 µg/mL
CCCCCCCCCCCC[N+](C)(C)COC(C)C	Staphylococcus aureus	ATCC 6538	MBC	9.32 µM
CC(=O)NC[C@H]1CN(c2ccc(-c3cncs3)c(F)c2)C(=O)O1	Staphylococcus epidermidis	UC12084 (methicillin-resistant)	MIC	≤0.125 µg/mL
CCCCCCCCCCCC[N+](C)(C)COC(C)CCCCCC	Staphylococcus aureus	ATCC 6538	MBC	3.06 µM
Cc1c(N)c(F)cc2c(=O)c(C(=O)O)cn(-c3cc(N)c(F)cc3F)c12	Staphylococcus aureus	27 isolates (methicillin-resistant)	MIC90	0.015 µg/mL
O=C(O)NC[C@H]1CC(c2ccc(N3CCOCC3)c(F)c2)=NO1	Staphylococcus epidermidis	UC12084	MIC	2 µg/mL
CC(=O)NC[C@H]1CN(c2ccc(-c3cnc(C(C)=O)s3)c(F)c2)C(=O)O1	Staphylococcus epidermidis	UC12084 (methicillin-resistant)	MIC	≤0.125 µg/mL
CCCCCCCCCCCC[N+](C)(C)COCC(CC)CCC	Staphylococcus aureus	ATCC 6538	MBC	25.5 µM
O=C(O)NC[C@H]1CC(c2ccc(-n3cccc3)c(F)c2)=NO1	Staphylococcus epidermidis	UC12084	MIC	0.5 µg/mL
Cc1c(NCCCO)c(F)cc2c(=O)c(C(=O)O)cn(-c3cc(N)c(F)cc3F)c12	Staphylococcus aureus	27 isolates	MIC50	0.03 µg/mL
O=C(NC[C@H]1CN(c2ccc(C3CCS(=O)(=O)CC3)c(F)c2)C(=O)O1)C1CC1	Staphylococcus epidermidis	UC12084	MIC	2 µg/mL
CC(=O)NC[C@H]1CN(c2ccc(-c3noc(C(N)=O)n3)c(F)c2)C(=O)O1	Staphylococcus epidermidis	UC12084 (methicillin-resistant)	MIC	2 µg/mL
CCCCCCCCCCCC[N+](C)(C)COCCCCC	Staphylococcus aureus	ATCC 6538	MBC	3.57 µM
COc1ccc(-c2ccc(C3=CC(CNC(C)=O)OC3=O)cc2)ccc1=O	Staphylococcus epidermidis	UC12084	MIC	1 µg/mL
CCCCCCCCCCCC[N+](C)(C)COC(CC)CCCCC	Staphylococcus aureus	ATCC 6538	MBC	25.5 µM
CC(=O)NC[C@H]1CN(c2ccc(-c3cnn(C(C)=O)c3)c(F)c2)C(=O)O1	Staphylococcus epidermidis	UC12084 (methicillin-resistant)	MIC	1 µg/mL
CCCCCCCCCCCC[N+](C)(C)CSCCCCC	Staphylococcus aureus	ATCC 6538	MBC	13.7 µM
CC(=O)NC[C@H]1CN(c2ccc(-c3cccs3)c(F)c2)C(=O)O1	Staphylococcus epidermidis	UC12084 (methicillin-resistant)	MIC	≤0.125 µg/mL

2 of the rows above, restated:

structure	species	strain or isolate	read-out	result
CC(=O)NC[C@H]1CN(c2ccc(-c3cnn(C(C)=O)c3)c(F)c2)C(=O)O1	Staphylococcus epidermidis	UC12084 (methicillin-resistant)	MIC	1 µg/mL
O=C(O)NC[C@H]1CC(c2ccc(N3CCOCC3)c(F)c2)=NO1	Staphylococcus epidermidis	UC12084	MIC	2 µg/mL

Neighbouring rows are from separate reports.